A mixed list of measured activities; the numbers were collected in NIAID ChemDB.

All rows: growth or infection tests; agent: HIV-1; method: RT activity; endpoint: EC50

Lines come from different laboratories, so protocols vary. Blank or dashed fields: not listed here. ECn is the concentration giving n% inhibition of infection, replication or growth.

compound | cells | strain or isolate | setting | changes | value
Nc1nc(=O)n([C@H]2C=C[C@@H](CO)O2)cc1F | PBMC | BRU-184V | - | RT-M184V | <0.15 µM
CCCCCCCCCCCCCCCCOP(=O)(OCCO[C@@H]1O[C@H](CO)[C@@H](O)[C@H](O)[C@@H]1O)OC[C@H]1O[C@@H](n2cc(C)c(=O)[nH]c2=O)C[C@@H]1N=[N+]=[N-] | CEM | LAV-Bru | 26 d | - | >1 µM
COc1cnc(-n2cnc(C)n2)c2[nH]cc(C(=O)C(=O)N3CCN(C(=O)c4ccccc4)CC3)c12 | MT-2 | LAI | - | - | 0.0007 µM
CC(C)C1=C2[C@H]3CC[C@@H]4[C@@]5(C)CC[C@H](OC(=O)CC(C)(C)C(=O)O)C(C)(C)[C@@H]5CC[C@@]4(C)[C@]3(C)CC[C@@]2(NC(=O)CN(C)C)CC1=O | MT-2 | IIIB | 30% human serum | - | <0.199 µM
Cc1cn([C@H]2C=C[C@@H](CO)O2)c(=O)[nH]c1=O | PBMC | IIIB | - | - | 0.05 µM
Nc1nc(NC2CC2)c2ncn([C@H]3CO[C@@H](CO)O3)c2n1 | MT-2 | IIIB BCH-13520-resistant (RT V75I) | - | RT-V75I | 0.48 µM
CC(C)C1=C2[C@H]3CC[C@@H]4[C@@]5(C)CC[C@H](OC(=O)CC(C)(C)C(=O)O)C(C)(C)[C@@H]5CC[C@@]4(C)[C@]3(C)CC[C@@]2(NC(=O)c2cnccn2)CC1=O | MT-2 | IIIB | 30% human serum | - | <0.199 µM
Cc1nc(CCCCCCC(=O)c2ccccc2)n2nc(NCCCCCCCCN)ccc12 | CEM + CEM TK- | LAI | - | - | 4.3 µM
CC(C)C1=C2[C@H]3CC[C@@H]4[C@@]5(C)CC[C@H](OC(=O)CC(C)(C)C(=O)O)C(C)(C)[C@@H]5CC[C@@]4(C)[C@]3(C)CC[C@@]2(NC(=O)c2ccccc2)CC1=O | MT-2 | IIIB | 30% human serum | - | <0.199 µM
CC(=O)OC(c1cccnc1)C(F)(F)c1nc2ccccc2o1 | CEM + CEM-SS | LAI | - | - | >100 µM
CC(C)C1=C2C3CCC4[C@@]5(C)CC[C@H](OC(=O)CC(C)(C)C(=O)O)C(C)(C)C5CC[C@@]4(C)[C@]3(C)CC[C@@]2(NC(=O)C2CC3CCC(C2)O3)CC1=O | MT-2 | IIIB | 30% human serum | - | <0.199 µM
O=C(CNC(=O)COc1ccccc1)NCc1ccc(C(=O)N2CCCCC2)cc1 | PBMC | Clinical isolate | - | MDR769 | 18.8 µM
CC(C)C1=C2C3CCC4[C@@]5(C)CC[C@H](OC(=O)CC(C)(C)C(=O)O)C(C)(C)C5CC[C@@]4(C)[C@]3(C)CC[C@@]2(NC(=O)OC2CCN(C)CC2)CC1=O | MT-2 | IIIB | 30% human serum | - | <0.199 µM
CNc1ncnc2c1ncn2[C@@H]1O[C@H](CO)C[C@@H]1F | MT-2 | IIIB BCH-13520-resistant (RT K65R) | - | RT-K65R | 1.8 µM
Cc1nc(CCCCCCC(=O)c2ccccc2)n2nc(NCCCCCCCCNCc3cn([C@H]4C=C[C@@H](CO)O4)c(=O)[nH]c3=O)ccc12 | CEM + CEM TK- | LAI | - | - | 6.3 µM
COc1ccnc2[nH]cc(C(=O)C(=O)N3CCN(C(=O)c4ccccc4)C[C@H]3C)c12 | MT-2 | LAI | - | - | 0.004 µM
Cc1nc(CCCCCCC(=O)c2ccccc2)n2nc(Cl)ccc12 | MT-4 | IIIB | - | - | 1.4 µM
Fc1ccc(C(F)C(F)(F)c2nc3ccccc3o2)cc1 | CEM + CEM-SS | LAI | - | - | >100 µM
CC(C)C1=C2C3CCC4[C@@]5(C)CC[C@H](OC(=O)CC(C)(C)C(=O)O)C(C)(C)C5CC[C@@]4(C)[C@]3(C)CC[C@@]2(NC(=O)NC(C)(C)C2CCCCC2)CC1=O | MT-2 | IIIB | 30% human serum | - | >1 µM
C[C@H]1CO[C@@H]2Cn3cc(C(=O)NCc4ccc(F)cc4F)c(=O)c(O)c3C(=O)N12 | CBMC | NL4-3 | - | Y143R | 0.00097 µM
Cc1cn([C@H]2C[C@H](N=[N+]=[N-])[C@@H](COP(=O)(O)OCCO[C@H]3O[C@H](CO)[C@@H](O)[C@H](O)[C@@H]3O)O2)c(=O)[nH]c1=O | CEM | LAV-Bru | 7 d | - | <0.2 µM
CCCc1cc(=O)oc2c3c(c4c(c12)OC(C)(C)CC4)O[C@@H](C)[C@H](C)[C@@H]3O | PBMC | WEJO | - | - | 0.2 µM
Fc1ccc(CC(F)(F)c2nc3ccccc3o2)cc1 | CEM + CEM-SS | LAI | - | - | >100 µM
Cc1nc(CCCCCCC(=O)c2ccccc2)n2nc(NCCCCCCCCCCN)ccc12 | CEM + CEM-SS | LAI | - | - | 5.4 µM
O=C(O)CN(CCN(CC(=O)O)Cc1cnc2c(O)cccc2c1)CC(=O)O | PBMC | B-92US026 Primary isolate | - | - | 12 µM
CC(C)C1=C2[C@H]3CC[C@@H]4[C@@]5(C)CC[C@H](OC(=O)CC(C)(C)C(=O)O)C(C)(C)[C@@H]5CC[C@@]4(C)[C@]3(C)CC[C@@]2(NC(=O)N2CCOCC2)CC1=O | MT-2 | IIIB | 30% human serum | - | <0.199 µM
COc1cc(-c2ccc(N=Nc3ccc4c(S(=O)(=O)O)cc(S(=O)(=O)O)c(N)c4c3O)c(OC)c2)ccc1N=Nc1ccc2c(S(=O)(=O)O)cc(S(=O)(=O)O)c(N)c2c1O | CEM + CEM-SS | 205 | - | - | 0.6 µM
CC(C)C1=C2[C@H]3CC[C@@H]4[C@@]5(C)CC[C@H](OC(=O)CC(C)(C)C(=O)O)C(C)(C)[C@@H]5CC[C@@]4(C)[C@]3(C)CC[C@@]2(NC(=O)CCN2CCCC2=O)CC1=O | MT-2 | IIIB | 30% human serum | - | <0.199 µM
O=C(c1cccnc1)C(F)(F)c1nc2ccccc2o1 | CEM + CEM-SS | LAI | - | - | >100 µM

Repeating the final 3 entries:

compound,cells,strain or isolate,setting,changes,value
COc1cc(-c2ccc(N=Nc3ccc4c(S(=O)(=O)O)cc(S(=O)(=O)O)c(N)c4c3O)c(OC)c2)ccc1N=Nc1ccc2c(S(=O)(=O)O)cc(S(=O)(=O)O)c(N)c2c1O,CEM + CEM-SS,205,-,-,0.6 µM
CC(C)C1=C2[C@H]3CC[C@@H]4[C@@]5(C)CC[C@H](OC(=O)CC(C)(C)C(=O)O)C(C)(C)[C@@H]5CC[C@@]4(C)[C@]3(C)CC[C@@]2(NC(=O)CCN2CCCC2=O)CC1=O,MT-2,IIIB,30% human serum,-,<0.199 µM
O=C(c1cccnc1)C(F)(F)c1nc2ccccc2o1,CEM + CEM-SS,LAI,-,-,>100 µM